{"source": "paper PMC8398805", "about": "“Chemical Characterization and Anti-HIV-1 Activity Assessment of Iridoids and Flavonols from Scrophularia trifoliata” (Molecules, 2021)", "key": {"[1]": {"target": "T1, HIV-1 RT-associated RNase H activity (Human immunodeficiency virus type 1 group M subtype B, UniProt P04585)", "T1 construct": "The 1:1 ration between the p66/p51 subunits was also verified; made in house; host or cells: E. coli strain M15 with the p6HRT-prot vector", "assay": "RNase H polymerase-independent cleavage assay", "assay_type": "biochemical", "conditions": "compound concentration required to inhibit the HIV-1 RNase H activity by 50%", "procedure": "HIV-1 RT group M subtype B. Heterodimeric RT was expressed and purified essentially as previously described. Briefly, protein was expressed in E. coli strain M15 containing the p6HRT-prot vector, induced with 1.7 mM isopropyl β-D-1-thiogalactopyranoside for 4 h. Protein purification was carried out with a BioLogic LP system (Biorad), using a combination of immobilized metal affinity and ion exchange chromatography. […] Catalytic activities and protein concentrations were determined. […]\nHIV RT-associated RNase H activity was measured as described (using the RNase H inhibitor RDS175911 as a control.) In a 100 µL reaction volume containing 50 mM Tris-HCl buffer with pH 7.8, 6 mM MgCl2, 1 mM dithiothreitol (DTT), 80 mM KCl, 0.25 µM hybrid RNA/DNA 5′-[…]-Fluorescin-3′ (HPLC, dry, QC: Mass Check) (available from Metabion (Planegg, Germany)) 5′-Dabcyl-[…]-3′ (HPLC, dry, QC: Mass Check), there were increasing concentrations of an inhibitor, whose dilution was made in water, and 20 ng of wt RT, according to a linear range of dose-response curve. The reaction mixture was incubated for 1 h at 37 °C, stopped by the addition of EDTA, and products were measured with a multilabel counter plate reader Victor 3 (Perkin Elmer model 1420-051 (Waltham, MA, USA)) equipped with filters for 490/528 nm (excitation/emission wavelength)."}, "[2]": {"target": "T2, HIV-1 IN in the presence of LEDGF/p75 (Human immunodeficiency virus type 1 group M subtype B, UniProt P04585)", "T2 construct": "Recombinant 6xHis tagged IN protein was expressed and purified as described previously; 6xHis; made in house; host or cells: Escherichia coli BL21 (DE3) for IN", "assay": "HTRF LEDGF-dependent integrase assay", "assay_type": "biochemical", "conditions": "concentration required to inhibit IN catalytic activities, by 50%", "procedure": "Recombinant 6xHis tagged IN protein was expressed and purified as described previously. Briefly, IN was expressed in Escherichia coli strain BL21 (DE3). Initial purification was done using a Ni-Sepharose column with an imidazole gradient from 20 mM to 500 mM concentration in a 50 mM HEPES (pH 7.5) buffer containing 1 M NaCl, 7.5 mM CHAPS, and 2 mM β-mercaptoethanol. This was followed by a heparin column purification with a NaCl gradient from 0 to 1 M concentrations. His-LEDGF was purified by loading precipitate of cell lysate onto a heparin column and was eluted with an increasing NaCl gradient (200 mM to 1 M) in a 50 mM HEPES (pH 7.5) buffer containing 7.5 mM CHAPS and 2 mM β-mercaptoethanol. Peak fractions were pooled and loaded onto a Superdex 200 GL column and eluted in a buffer containing 50 mM HEPES (pH 7.5), 200 mM NaCl, and 2 mM β-mercaptoethanol. […]\nThe HTRF assay allows measuring the inhibition of 3′-processing and strand-transfer IN reactions in the presence of recombinant LEDGF/p75 cellular cofactor [43]. […] After the incubation, 4 nM of Europium-Streptavidin were added to the reaction mixture, and the HTRF signal was recorded using a Perkin Elmer Victor 3 plate reader using a 314 nm for the excitation wavelength and 668 and 620 nm for the wavelength of the acceptor and the donor substrate emission, respectively."}}}
{"substance": "kaempferol-3-O-rutinoside [Compound 10]", "values": [{"measurement": "IC50", "setting": "[1]", "result": "> 100000", "unit": "nM"}, {"measurement": "IC50", "setting": "[2]", "result": "1760 ± 17", "unit": "nM"}]}
